PubChem BioAssay AID1259414 – Drosophila RNAi Screening Center – 2018

Aim: 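Fly genes that alter Wolbachia amount inside host cells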 (primary screen)
Cells: Drosophila JW18 cells infected with Wolbachia
Reagent: long dsRNA against Drosophila genes, 0.25 µg dsRNA per well of a 384-well plate
Timing: 5 days
Conditions: cells persistently infected with Wolbachia before knock-down; no added drug
Read-out: 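Imaged fluorescence in situ signal for Wolbachia 23S rRNA per DAPI-counted host cell, given as a robust z-score within each plate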
Direction: Wolbachia per cell robust z: higher = more Wolbachia per host cell than the plate typical
Call rule: 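Hit when robust z is 1.5 or more, or -1.5 or less, in at least two of three replicates; excludes dsRNAs with several or no targets, genes not expressed in JW18 and well A1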
The screen tested about 24,000 reagents; shown is a random part of those that have a named target and a result. In the full data, about 1,210 (5%) are marked active. 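Inactive calls also include excluded dsRNAs with several or no targets, genes unexpressed in JW18, and well A1, regardless of score.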 Entries without a mark were called inactive. Reagents against one gene are numbered here.

CG13622 #1 → Wolbachia per cell robust z, rep 1: -0.616; Wolbachia per cell robust z, rep 2: -0.893; Wolbachia per cell robust z, rep 3: 0.45
CG13622 #2 → Wolbachia per cell robust z, rep 1: 0.296; Wolbachia per cell robust z, rep 2: 0.0389; Wolbachia per cell robust z, rep 3: 0.429
CG15136 → Wolbachia per cell robust z, rep 1: 0.248; Wolbachia per cell robust z, rep 2: -2.46; Wolbachia per cell robust z, rep 3: 0.00468
CG11700 #1 → Wolbachia per cell robust z, rep 1: 0.43 (active); Wolbachia per cell robust z, rep 2: 1.63; Wolbachia per cell robust z, rep 3: 2.09
CG11700 #2 → Wolbachia per cell robust z, rep 1: 2.95 (active); Wolbachia per cell robust z, rep 2: 2.92; Wolbachia per cell robust z, rep 3: 4.06
E(spl)malpha-BFM #1 → Wolbachia per cell robust z, rep 1: 1.55; Wolbachia per cell robust z, rep 2: 0.853; Wolbachia per cell robust z, rep 3: 0.929
E(spl)malpha-BFM #2 → Wolbachia per cell robust z, rep 1: 0.706; Wolbachia per cell robust z, rep 2: 0.667; Wolbachia per cell robust z, rep 3: 0.642
CG6800 #1 → Wolbachia per cell robust z, rep 1: -0.161; Wolbachia per cell robust z, rep 2: -0.288; Wolbachia per cell robust z, rep 3: -1.21
CG6800 #2 → Wolbachia per cell robust z, rep 1: -2.98; Wolbachia per cell robust z, rep 2: 0.785; Wolbachia per cell robust z, rep 3: 0.441
wam → Wolbachia per cell robust z, rep 1: 0.815; Wolbachia per cell robust z, rep 2: 0.258; Wolbachia per cell robust z, rep 3: 0.436
EDTP → Wolbachia per cell robust z, rep 1: -0.000411; Wolbachia per cell robust z, rep 2: -0.033; Wolbachia per cell robust z, rep 3: -0.51
Vps39 → Wolbachia per cell robust z, rep 1: -3.2; Wolbachia per cell robust z, rep 2: -0.607; Wolbachia per cell robust z, rep 3: -0.997
TotC → Wolbachia per cell robust z, rep 1: 1.08; Wolbachia per cell robust z, rep 2: 0.832; Wolbachia per cell robust z, rep 3: -0.42
CG13659 #1 → Wolbachia per cell robust z, rep 1: -3.66; Wolbachia per cell robust z, rep 2: 0.822; Wolbachia per cell robust z, rep 3: 0.0969
CG13659 #2 → Wolbachia per cell robust z, rep 1: 0.168; Wolbachia per cell robust z, rep 2: -0.745; Wolbachia per cell robust z, rep 3: 0.168
Etf-QO → Wolbachia per cell robust z, rep 1: 0.856; Wolbachia per cell robust z, rep 2: 0.842; Wolbachia per cell robust z, rep 3: 0.644

Reagents listed above called active (2):
CG11700 #1 → Wolbachia per cell robust z, rep 1: 0.43 (active); Wolbachia per cell robust z, rep 2: 1.63; Wolbachia per cell robust z, rep 3: 2.09
CG11700 #2 → Wolbachia per cell robust z, rep 1: 2.95 (active); Wolbachia per cell robust z, rep 2: 2.92; Wolbachia per cell robust z, rep 3: 4.06
